A mixed list of measured activities; the numbers were collected in NIAID ChemDB.

Shared fields: whole-cell or culture tests; agent: HIV-1; read by: cytopathic effect / XTT; read-out: EC50

Blank or dashed fields: not listed here. Conditions beyond the fields shown may differ between rows. ECn is the concentration giving n% inhibition of infection, replication or growth.

structure,strain or isolate,cells,changes,value
CC(C)(C)C[C@H](NC(=O)c1ccccc1SSc1ccccc1C(=O)N[C@@H](CC(C)(C)C)C(=O)O)C(=O)O,IIIB,CEM,-,5.7 µM
Cn1cc(N)cc1C(=O)Nc1cc(C(=O)Nc2ccc(S(=O)(=O)O)c3cc(S(=O)(=O)O)ccc23)n(C)c1,RF,CEM + CEM-SS,-,34.9 µM
CCCc1cc(=O)oc2c3c(c4c(c12)OC(C)(C)CC4)O[C@@H](C)[C@H](C)[C@@H]3O,IIIB,AA5,-,0.6 µM
CCCc1cc(=O)oc2c3c(c4c(c12)OC(C)(C)CC4)O[C@H](C)[C@@H](C)C3=O,SK1,CEM + CEM-SS,-,0.17 µM
O=C(c1ccccc1SSc1ccccc1C(=O)N1CCOCC1)N1CCOCC1,-,CEM,-,>50 µM
Cc1occc1C(=S)Nc1ccc(Cl)c(C(=O)OCC2CC2)c1,NL4-3,CEM + CEM-SS,RT-Y181C,0.2 µM
NC(=O)c1ccccc1SSc1ccccc1C(N)=O,-,CEM,-,>21 µM
CC(C)=CCOc1cc(NC(=S)c2ccoc2C)ccc1Cl,Pyridinone-resistant (RT Y181C K103N),CEM + CEM-SS,RT-K103N Y181C,>2 µM
CN(C)C1=C(C#N)/C(=C2/C(C#N)=C(N(C)C)N(c3ccc([N+](=O)[O-])cc3)c3c2n(C)c2ccccc32)c2c(c3ccccc3n2C)N1c1ccc([N+](=O)[O-])cc1,ddI-resistant (RT-K65R),CEM + CEM-SS,RT-K65R,0.62 µM
O=C(Nc1ccc(S(=O)(=O)Nc2ncccn2)cc1)c1ccccc1SSc1ccccc1C(=O)Nc1ccc(S(=O)(=O)Nc2ncccn2)cc1,-,CEM,-,12 µM
CON(C)C(=O)[C@H](CC(C)C)NC(=O)c1ccccc1SSc1ccccc1C(=O)N[C@@H](CC(C)C)C(=O)N(C)OC,IIIB,CEM,-,>20 µM
CC=CCOc1cc(NC(=S)c2ccoc2C)ccc1OC,4xAZT/L100I(RT-D67N K70R T215Y K219Q L100I),CEM + CEM-SS,RT-D67N K70R L100I T215Y K219Q,0.7 µM
Cn1cc(NC(=O)Nc2cc(C(=O)Nc3cc(C(=O)Nc4ccc(P(=O)(O)O)c5cc(P(=O)(O)O)ccc45)n(C)c3)n(C)c2)cc1C(=O)Nc1cc(C(=O)Nc2ccc(P(=O)(O)O)c3cc(P(=O)(O)O)ccc23)n(C)c1,N119,CEM + CEM-SS,-,0.3 µM
C=CCO/N=C/c1cc(NC(=S)c2ccoc2C)ccc1Cl,NL4-3,CEM + CEM-SS,RT-K103N,6.8 µM
CC(=O)c1ccc(C)cc1NC(C(N)=O)c1c(Cl)cccc1Cl,UC040-R (RT-Y181C),CEM + CEM-SS,RT-Y181C,>1 µM
COc1cc(-c2ccc(N=Nc3ccc4c(S(=O)(=O)O)cc(S(=O)(=O)O)c(N)c4c3O)c(OC)c2)ccc1N=Nc1ccc2c(S(=O)(=O)O)cc(S(=O)(=O)O)c(N)c2c1O,BaL,PBMC,-,1.8 µM
CC(C)=CCOc1cc(NC(=S)c2ccsc2C)ccc1Cl,4XAZT+L100I,CEM + CEM-SS,-,0.01 µM
O=C(NNc1ccccc1)c1ccccc1SSc1ccccc1C(=O)NNc1ccccc1,-,CEM,-,>5.2 µM
O=C(O)C[C@H](CCCCNC(=O)OCc1ccccc1)NC(=O)c1ccccc1SSc1ccccc1C(=O)N[C@@H](CCCCNC(=O)OCc1ccccc1)CC(=O)O,IIIB,CEM,-,7.1 µM
Cc1occc1C(=S)Nc1ccc(Cl)c(/C=N/OC(C)(C)C)c1,NL4-3,CEM + CEM-SS,RT-V179D,0.73 µM
O=C(Nc1nccs1)c1ccccc1SSc1ccccc1C(=O)Nc1nccs1,-,CEM,-,12 µM
CC[C@@H](C)[C@@H](CC(=O)O)NC(=O)c1ccccc1SSc1ccccc1C(=O)N[C@H](CC(=O)O)[C@H](C)CC,IIIB,CEM,-,3.2 µM
Cn1cc(NC(=O)Nc2cc(C(=O)Nc3cc(C(=O)Nc4cc(C(=O)Nc5ccc6cc(S(=O)(=O)O)cc(S(=O)(=O)O)c6c5)n(C)c4)n(C)c3)n(C)c2)cc1C(=O)Nc1cc(C(=O)Nc2cc(C(=O)Nc3ccc4cc(S(=O)(=O)O)cc(S(=O)(=O)O)c4c3)n(C)c2)n(C)c1,RF,CEM + CEM-SS,-,1 µM
NC(=O)CC[C@H](NC(=O)c1ccccc1SSc1ccccc1C(=O)N[C@@H](CCC(N)=O)C(=O)O)C(=O)O,IIIB,CEM,-,18.3 µM
CC1=C(C(=O)Nc2ccc(Cl)c(C(=O)OC(C)C)c2)SCCO1,NL4-3,CEM + CEM-SS,-,0.6 µM
COc1cc(-c2ccc(N=Nc3ccc4c(S(=O)(=O)O)cc(S(=O)(=O)O)c(N)c4c3O)c(OC)c2)ccc1N=Nc1ccc2c(S(=O)(=O)O)cc(S(=O)(=O)O)c(N)c2c1O,C,CEM + CEM-SS,-,0.7 µM
Cc1occc1C(=S)Nc1ccc(Cl)c(C(=O)OC(C)C)c1,4XAZT/Y181C (RT D67N K70R Y181C T215Y K219Q),CEM + CEM-SS,RT-D67N K70R Y181C T215Y K219Q,0.4 µM
Cn1cc(NC(=O)Nc2cc(C(=O)Nc3cc(C(=O)Nc4cc(S(=O)(=O)O)c5cc(S(=O)(=O)O)cc(S(=O)(=O)O)c5c4)n(C)c3)n(C)c2)cc1C(=O)Nc1cc(C(=O)Nc2cc(S(=O)(=O)O)c3cc(S(=O)(=O)O)cc(S(=O)(=O)O)c3c2)n(C)c1,IIIB,CEM + CEM-SS,-,3.2 µM
CN1N=C(N)c2cn([C@@H]3O[C@H](COP(=O)(O)O)[C@@H](O)[C@H]3O)c3ncnc1c23,TP1,CEM + CEM-SS,-,0.07 µM
O=C(Nc1ccc(Br)cc1)c1ccccc1SSc1ccccc1C(=O)Nc1ccc(Br)cc1,-,CEM,-,17 µM
Cn1cc(NC(=O)Nc2cc(C(=O)Nc3cc(C(=O)Nc4ccc5cc(S(=O)(=O)O)cc(S(=O)(=O)O)c5c4)n(C)n3)n(C)c2)cc1C(=O)Nc1cc(C(=O)Nc2ccc3cc(S(=O)(=O)O)cc(S(=O)(=O)O)c3c2)n(C)n1,RF,CEM + CEM-SS,-,6.5 µM

3 of the rows above, restated:

structure,strain or isolate,cells,changes,value
CN(C)C1=C(C#N)/C(=C2/C(C#N)=C(N(C)C)N(c3ccc([N+](=O)[O-])cc3)c3c2n(C)c2ccccc32)c2c(c3ccccc3n2C)N1c1ccc([N+](=O)[O-])cc1,ddI-resistant (RT-K65R),CEM + CEM-SS,RT-K65R,0.62 µM
C=CCO/N=C/c1cc(NC(=S)c2ccoc2C)ccc1Cl,NL4-3,CEM + CEM-SS,RT-K103N,6.8 µM
CON(C)C(=O)[C@H](CC(C)C)NC(=O)c1ccccc1SSc1ccccc1C(=O)N[C@@H](CC(C)C)C(=O)N(C)OC,IIIB,CEM,-,>20 µM